Results on 1 molecule are retold here after patent US20120219613A1 (priority 2009, published 2012).

The subject of this assay is Adenovirus. It counts as cell-based. Particulars: 10 μM, 293T and Vero cells, flow cytometry. Background: A flow cytometer gives signals particle by particle.

With `C=CCN1C(=O)/C(=C/c2ccc(-c3ccccc3)o2)SC1=S` [LJ-001, (Z)-3-Allyl-5-(5-phenyl-2-furyl)methylene-4-oxothiazolidine-2-thione], the “inhibition of Ad5-GFP infection” value is on record as “No inhibition”.
